System: Male Sprague-Dawley rats
Test: Respiratory depression assay
Conditions: rat, fentanyl 3 mg/kg SC then Compound B-15 30 mg/kg SC, plethysmograph, FIG. 2

## CN(C)[C@H](CNC(=O)[C@@H]1C[C@]1(C)c1ccccc1)Cc1ccc(O)cc1Cl [Compound B-15, (1R,2S)—N—((S)-3-(2-chloro-4-hydroxyphenyl)-2-(dimethylamino)-propyl)-2-methyl-2-phenylcyclopropane-1-carboxamide]
  effect on the respiratory depression of fentanyl (minute volume): blocks
